Anti-infective test results gathered from many reports (values: NIAID ChemDB through PubChem).

All rows: tests in culture; agent: HIV-1; method: p24; endpoint: EC50

Blank or dashed fields: not listed here. Conditions beyond the fields shown may differ between rows. ECn is the concentration giving n% inhibition of infection, replication or growth.

SMILES,mutations,setting,strain or isolate,cells,result
Cc1nn(COC(CO)CN=[N+]=[N-])c(=O)[nH]c1=O,,,,MT-4,>1000 µM
CCCc1cc(=O)oc2c3c(c4c(c12)OC(C)(C)C=C4)O[C@H](C)C[C@@H]3O,,,IIIB,MT-4,4.65 µM
CC(=O)Nc1ccc(S(=O)(=O)N(CC(C)C)C[C@@H](O)[C@H](Cc2ccccc2)NC(=O)O[C@@H]2CCOC2)cc1,,,IIIB,CEM,<0.101 µM
Nc1cccc(S(=O)(=O)N(CC2CCCC2)C[C@@H](O)CN(CCc2ccccc2)C(=O)OC2COCOC2)c1,,,IIIB,CEM,<0.1 µM
CCN1c2ncc(CCOc3ccc(C(C)C(=O)O)c4ccccc34)cc2C(=O)N(C)c2cccnc21,,,WT,C8166,<0.1 µM
CC(C)CN(C[C@@H](O)[C@H](Cc1ccc(F)cc1)NC(=O)O[C@H]1C2COC3OCC1C3C2)S(=O)(=O)c1ccc2nc(NC3CC3)sc2c1,,,NL4-3,MT-4,0.00005 µM
CCN1c2ncc(CCOc3ccc(/C=C(\C)C(=O)O)c4ccccc34)cc2C(=O)N(C)c2ccc(C)nc21,,,WT,C8166,<0.1 µM
CC(C)(C)NC(=O)c1ccccc1C(=O)C(=O)C(=O)N(CC1CCCC1)S(=O)(=O)c1ccccc1,,,IIIB,CEM,<1 µM
Cc1cccc(C)c1CNC(=O)[C@@H]1CCCN1C(=O)[C@@H](O)C[C@@H](Cc1ccccc1)C(=O)N[C@H]1c2ccccc2OC[C@H]1O,,,NL4-3,MT-4,<1 µM
C=CCN(C(=O)OCc1ccc([N+](=O)[O-])cc1)C1CCN(C[C@H]2CN(C(=O)C3CCCC3)C[C@]2(O)c2ccccc2)CC1,,,TK1135 R5,PBMC,0.0084 µM
CCN1c2ncc(CCOc3ccc(CC(C)C(=O)O)c4ccccc34)cc2C(=O)N(C)c2ccc(C)nc21,,,WT,C8166,<0.1 µM
Cc1ccc(S(=O)(=O)N(CC(C)C)C[C@@H](O)[C@H](Cc2ccccc2)NC(=O)O[C@@H]2CCOC2)cc1,,,IIIB,CEM,<0.101 µM
NCC(N)=O,,,SF2,H9,<100 µM
NC(=O)C[C@H](NC(=O)c1ccc2ccccc2n1)C(=O)N[C@@H](Cc1ccccc1)[C@H](O)CN(Cc1ccccc1)S(=O)(=O)c1cccc(S(N)(=O)=O)c1,,,IIIB,CEM,<1 µM
Nc1nc(=O)n([C@@H]2CC[C@H](CO)O2)cc1F,,,RF,MT-4,0.03 µM
Cc1c(O)c(=O)ccn1C,,,,H9,~135 µM
CC(C)CN(C[C@@H](O)[C@H](Cc1cccc(F)c1)NC(=O)O[C@H]1C2COC3OCC1C3C2)S(=O)(=O)c1ccc2nc(NC3CC3)sc2c1,,,NL4-3,MT-4,0.000057 µM
CC(=O)Nc1nc(C)c(S(=O)(=O)N(CC(C)C)C[C@@H](O)[C@H](Cc2ccccc2)NC(=O)[C@H](CC(N)=O)NC(=O)c2ccc3ccccc3n2)s1,,,IIIB,CEM,<0.101 µM
CC(C)CN(C[C@@H](O)[C@H](Cc1ccccc1)NC(=O)OC(C)(C)C)S(=O)(=O)c1ccc(F)cc1,,,IIIB,CEM,<10 µM
COc1cc(CO)c(-c2c(CO)cc(OC)c(OC)c2OC)c(OC)c1OC,,,IIIB,H9,65 µM
[N-]=[N+]=NC[C@@H](CO)OCn1nc(-c2ccccc2)c(=O)[nH]c1=O,,,,MT-4,>1000 µM
CC(C)CN(C[C@@H](O)[C@H](Cc1ccccc1)NC(=O)O[C@H]1CCOC1)S(=O)(=O)c1ccc(-c2ccccn2)s1,,,IIIB,CEM,<10 µM
O=C(c1ccccc1)N(CCc1ccccc1)C[C@H](O)CN(CC1CCCC1)S(=O)(=O)Cc1cnc[nH]1,,,IIIB,CEM,<1 µM
O=C(N[C@@H](Cc1ccccc1)[C@H](O)CN(CC1CCCC1)S(=O)(=O)c1ccc(OC(F)(F)F)cc1)O[C@H]1CCOC1,,,IIIB,CEM,<10 µM
Cc1noc(C)c1CNC(=O)[C@H]1N(C(=O)[C@@H](O)C[C@@H](Cc2ccccc2)C(=O)N[C@H]2c3ccccc3OC[C@H]2O)COC12CCCC2,,,NL4-3,MT-4,<0.25 µM
NCC(=O)N1CCC[C@H]1C(=O)NCC(N)=O,,,SF2,H9,<100 µM
CC(=O)Nc1ccc(S(=O)(=O)N(CC(C)C)C[C@@H](O)[C@H](Cc2ccccc2)NC(=O)[C@@H](NC(=O)OCc2ccncc2)C(C)C)cc1,,,IIIB,CEM,<0.101 µM
CCCCCCCCCCCCCCCCCCOCCOP(=O)(O)CO[C@H](CO)Cn1cnc2c(N)ncnc21,RT-K103N,,,MT-2,0.00035 µM
CC(=O)Nc1ccc(S(=O)(=O)N(CC(C)C)C[C@@H](O)[C@H](Cc2ccccc2)NC(=O)O[C@H]2CCOC2)cc1,,,IIIB,CEM,<0.101 µM
CCCCCCCCCCCCCCCCOCCCOP(=O)(O)CO[C@H](CO)Cn1cnc2c(N)ncnc21,RT-D67N K70R T215Y K219Q,,4xAZT,MT-2,0.005 µM
Nc1nc(=O)n([C@H]2C=C[C@@H](CO)O2)cc1F,RT-M184V,,XM-M184V,MT-4,<2 µM
NCC(=O)N1CCC[C@H]1C(=O)O,,,SF2,H9,>100 µM
Nc1cccc(S(=O)(=O)N(CC2CCCC2)C[C@@H](O)CN(CCc2ccccc2)CC(=O)c2ccccc2)c1,,,IIIB,CEM,<1 µM
NC(=O)C[C@H](NC(=O)c1ccc2ccccc2n1)C(=O)N[C@@H](Cc1ccccc1)[C@H](O)CN(Cc1ccccc1)S(=O)(=O)c1ccccc1,,,IIIB,CEM,<10 µM
Cc1cccc(C)c1CNC(=O)[C@@H]1CCCCN1C(=O)[C@@H](O)C[C@@H](Cc1ccccc1)C(=O)N[C@H]1c2ccccc2OC[C@H]1O,,,NL4-3,MT-4,<1 µM
CC(=O)CCC(=O)NCCCOCCOCCCNC(=O)CNC(=O)[C@H](CS)NC(=O)[C@@H](NC(=O)[C@@H](NC(=O)[C@H](CO)NC(=O)[C@@H](N)CS)C(C)C)[C@@H](C)O,,,IIIB,PBMC(PHA STIM.) + PBMC,<0.66 µM
CSc1cc(N)nc(S[C@@H](C)c2cc3ccoc3cn2)n1,RT-P236L,,MF DLV-resistant (RT P236L),MT-4,<0.02 µM
CC(=O)N(C)c1nc(C(=O)NCc2ccc(F)cc2)c(O)c2ncccc12,,10% FBS,,MT-4,<0.125 µM
C=CC(C)(/C=C\c1ccc(O)cc1)c1ccc(O)cc1.NC(=O)NO,,,BaL,PBMC,0.0013 µM
C=CCOC(=O)N[C@@H](Cc1ccccc1)[C@H](O)CN(CC(C)C)S(=O)(=O)c1ccc(Cl)c(Cl)c1,,,IIIB,CEM,<1.001 µM
COC(=O)c1cc(OC)c(OC)c(OC)c1-c1c(C(=O)OC)cc(OC)c(OC)c1OC,,,IIIB,H9,>200 µM
[N-]=[N+]=NCC(CO)OCn1ncc(=O)[nH]c1=O,,,,MT-4,>1000 µM
Nc1nccc2c1ncn2[C@@H]1C=C(CO)[C@@H](O)[C@H]1O,,,14A-4/87 PRE-AZT,PBMC,0.0105 µM
CC(C)CN(C[C@@H](O)[C@H](Cc1ccccc1)NC(=O)O[C@H]1CCOC1)S(=O)(=O)c1ccc(F)cc1,,,IIIB,CEM,<1 µM
CC1(C)CC(NC(=O)C(=O)Nc2ccc(Br)cc2)CC(C)(C)N1,,,V32,MT-2,4.43 µM
CS(=O)c1ccc(-c2nc(-c3ccc(F)cc3)c(-c3ccncc3)[nH]2)cc1,,,pNL4-3,Jurkat cells,10 µM
CC(C)[C@H](NC(=O)[C@H](CO)NC(=O)[C@H](CS)NC(=O)CCC(=O)NCCCOCCOCCCN)C(=O)N[C@H](C(=O)N[C@@H](CS)C(=O)NCC(=O)O)[C@@H](C)O,,,IIIB,PBMC(PHA STIM.) + PBMC,<0.132 µM
Cc1cn([C@H]2C=C[C@@H](CO)O2)c(=O)[nH]c1=O,RT-A62V V75I F77C F116Y Q151M,,XM-Q151M,MT-4,<22 µM
O=C(c1ccccc1)N(CCc1ccccc1)C[C@H](O)CN(CC1CCCC1)S(=O)(=O)CC1CS(=O)(=O)CC1O,,,IIIB,CEM,<1 µM
Nc1ncnc2c1ncn2[C@@H]1C=C(CO)[C@@H](O)[C@H]1O,,,A012 POST-AZT,PBMC,0.0028 µM
CC(=O)Nc1cccc(S(=O)(=O)N(CC(C)C)C[C@@H](O)[C@H](Cc2ccccc2)NC(=O)[C@H](CC(N)=O)NC(=O)c2ccc3ccccc3n2)c1,,,IIIB,CEM,<1 µM
CCN1c2ncc(CCOc3cccc4c3ccc[n+]4[O-])cc2C(=O)N(C)c2ccc(Cl)nc21,,,IIIB,C8166,0.0004 µM
CCN1c2ncc(CCOc3ccc(C(=O)O)c4c3CCN(C(=O)OC)C4)cc2C(=O)N(C)c2cccnc21,RT-K103N Y181C,,,C8166,<0.1 µM
CC(C)CN(C[C@@H](O)[C@H](Cc1ccccc1)NC(=O)O[C@H]1CCOC1)S(=O)(=O)c1ccc(-c2ccon2)s1,,,IIIB,CEM,<1 µM
COc1ccc(S(=O)(=O)N(CC(C)C)C[C@@H](O)CCN(CC2CCCC2)S(=O)(=O)C2C(=O)CC(C)(C)S(=O)(=O)C2=O)cc1,,,IIIB,CEM,<1 µM
CC(C)CN(C[C@@H](O)[C@H](Cc1ccccc1)NC(=O)O[C@H]1CCOC1)S(=O)(=O)c1cccc(Cl)c1,,,IIIB,CEM,<0.101 µM
NC(=O)c1[nH]c2ccc(Cl)cc2c1S(=O)(=O)c1ccccc1,RT-K103R V179D P225H,,EFV-resistant (RT K103R V179D P225H),C8166,<0.9 µM
NC(=O)C[C@H](NC(=O)c1ccc2ccccc2n1)C(=O)N[C@@H](Cc1ccccc1)[C@H](O)CN(Cc1ccccc1)S(=O)(=O)c1ccc(-c2ccon2)s1,,,IIIB,CEM,<0.101 µM
CCN1c2ncc(CCOc3ccc4cc(CC(=O)NN)ccc4c3)cc2C(=O)N(C)c2cccnc21,RT-K103N Y181C,,,C8166,<0.1 µM

5 of the rows above, restated:

CC(C)[C@H](NC(=O)[C@H](CO)NC(=O)[C@H](CS)NC(=O)CCC(=O)NCCCOCCOCCCN)C(=O)N[C@H](C(=O)N[C@@H](CS)C(=O)NCC(=O)O)[C@@H](C)O ; strain or isolate: IIIB ; cells: PBMC(PHA STIM.) + PBMC ; result: <0.132 µM
[N-]=[N+]=NC[C@@H](CO)OCn1nc(-c2ccccc2)c(=O)[nH]c1=O ; cells: MT-4 ; result: >1000 µM
Cc1cn([C@H]2C=C[C@@H](CO)O2)c(=O)[nH]c1=O ; mutations: RT-A62V V75I F77C F116Y Q151M ; strain or isolate: XM-Q151M ; cells: MT-4 ; result: <22 µM
CCCCCCCCCCCCCCCCCCOCCOP(=O)(O)CO[C@H](CO)Cn1cnc2c(N)ncnc21 ; mutations: RT-K103N ; cells: MT-2 ; result: 0.00035 µM
NC(=O)C[C@H](NC(=O)c1ccc2ccccc2n1)C(=O)N[C@@H](Cc1ccccc1)[C@H](O)CN(Cc1ccccc1)S(=O)(=O)c1ccc(-c2ccon2)s1 ; strain or isolate: IIIB ; cells: CEM ; result: <0.101 µM